Measured values from several laboratories, pooled; numbers as filed in NIAID ChemDB.

Common to all: whole-cell or culture tests; organism: Candida tropicalis

ECn is the concentration giving n% inhibition of infection, replication or growth. a–b is a range or a potency band. Lines come from different laboratories, so protocols vary. Blank or dashed fields: not listed here. A number after MIC or MFC names an inhibition level or a share of isolates. Zones are inhibition diameters on agar.

CCOc1cccc2ccc[n+](CC)c12.[I-] ; read-out: MIC ; result: >100 µg/mL
O=[N+]([O-])c1cc(CSc2nnnn2Cc2ccccc2)cc([N+](=O)[O-])c1 ; conditions: 48 h ; method: broth dilution ; strain: 156 ; read-out: EC80 ; result: >500 µM
O=C(Oc1cccc2cccnc12)c1ccccc1 ; read-out: MIC ; result: >100 µg/mL
O=c1cc(-c2ccccc2)oc2cc(O)c(O)c(O)c12 ; strain: 186.06 ; read-out: MIC ; result: 104 µg/mL
C[C@H]1[C@H](O)[C@@H](C)/C=C/C=C/C=C/C=C/C=C/C=C/C=C/[C@H](O[C@@H]2O[C@H](C)[C@@H](O)[C@H](N)[C@@H]2O)C[C@@H]2O[C@](O)(C[C@@H](O)C[C@@H](O)CC[C@H](O)[C@@H](O)C[C@@H](O)CC(=O)O[C@H]1C)C[C@H](O)[C@H]2C(=O)O ; method: agar diffusion / agar ; read-out: zone ; dose: 10 µg/mL ; result: 22 mm
COC(=O)c1cc(O)c(O)c(O)c1 ; method: broth dilution ; strain: ATCC 750 ; read-out: MLC ; result: >200 µg/mL
c1ccc(COc2cccc3cccnc23)cc1 ; read-out: MIC ; result: 75 µg/mL
C[C@@H]1[C@H](O)[C@@H](C)/C=C/C=C/CC/C=C/C=C/C=C/C=C/C(O[C@H]2O[C@H](C)[C@@H](O)[C@H](N)[C@@H]2O)CC2O[C@](O)(CC(O)C(O)CCC(O)CC(O)CC(O)CC(=O)O[C@H]1C)CC(O)C2C(=O)O ; method: broth dilution ; strain: ATCC 13803 ; read-out: MIC100 ; result: >1024 µg/mL
O=C(O)c1ccccc1 ; strain: PYCC 3097 ; read-out: EC50 ; result: 0.48 µM
CC(C)CCCc1ccc2c(c1)C(=O)C(Cl)=C(Cl)C2=O ; method: absorbance ; strain: ATCC 200956 ; read-out: MIC90 ; result: >11.3 µg/mL
CCCCCCCCCCCCCCCCCCCO ; method: broth dilution ; strain: ATCC 750 ; read-out: MLC ; result: 200 µg/mL
CCCCCOc1cccc2cccnc12 ; read-out: MIC ; result: 50 µg/mL
C=CCc1ccc(OC)cc1 ; read-out: MIC90 ; result: 0.016–0.025 µg/mL
C1=C(c2cc3ccccc3o2)C2CCN1CC2 ; method: broth dilution ; strain: ATCC 13803 ; read-out: EC50 ; result: >16 µg/mL
O=c1c(O)c(-c2ccc(O)c(O)c2)oc2cc(O)cc(O)c12 ; method: broth dilution ; strain: ATCC 750 ; read-out: MLC ; result: 200 µg/mL
C[C@@H](c1ncncc1F)[C@](O)(Cn1cncn1)c1ccc(F)cc1F ; method: broth dilution ; strain: 17 clinical isolates ; read-out: MIC50 ; result: ≤0.031 µg/mL
O=C(O)c1cccc(-n2nnnc2SCc2cc([N+](=O)[O-])cc([N+](=O)[O-])c2)c1 ; conditions: 48 h ; method: broth dilution ; strain: 156 ; read-out: EC80 ; result: >500 µM
C1=C(c2ccc3ccccc3c2)C2CCN1CC2 ; method: broth dilution ; strain: ATCC 13803 ; read-out: EC50 ; result: >16 µg/mL
O[C@](Cn1cncn1)(Cn1cnc(/C=C/c2ccc(OCC(F)(F)C(F)F)cc2)n1)c1ccc(F)cc1F ; strain: 10 strains ; read-out: Mean MIC80 ; result: 0.06 µg/mL
COc1ccc2cc(C3=CN4CCC3CC4)ccc2c1 ; method: broth dilution ; strain: ATCC 13803 ; read-out: EC50 ; result: >16 µg/mL
C[C@@H]1O[C@@H](OC[C@H]2O[C@@H](Oc3c(-c4ccc(O)cc4)oc4cc(O)cc(O)c4c3=O)[C@H](O)[C@@H](O)[C@@H]2O)[C@H](O)[C@H](O)[C@H]1O ; read-out: MIC ; result: 640 µg/mL
C1=C(c2cc3ccccc3s2)C2CCN1CC2 ; method: broth dilution ; strain: ATCC 13803 ; read-out: EC50 ; result: >16 µg/mL
O=[N+]([O-])c1cc(CSc2cccc[n+]2[O-])cc([N+](=O)[O-])c1 ; conditions: 48 h ; method: broth dilution ; strain: 156 ; read-out: EC80 ; result: >500 µM
C[C@H](Cc1ccc(O)c(O)c1)[C@@H](C)Cc1ccc(O)c(O)c1 ; method: broth dilution ; strain: CCC 131-1997 ; read-out: MIC80 ; result: 250 µg/mL
C=C(c1ccccc1OCc1cccc(Cl)c1)n1ccnc1 ; strain: 19 isolates ; read-out: MIC90 ; result: 8 µg/mL
Oc1cc(O)c2c(c1)OC(c1ccc(O)c(O)c1)[C@@H](O)C2 ; method: broth dilution ; strain: Clinical isolate 5 ; read-out: MIC50 ; result: >128 µg/mL
CN(C/C=C/C#CC(C)(C)C)Cc1cccc2ccccc12 ; method: broth dilution ; strain: ATCC 750 ; read-out: MIC100 ; result: >100 µg/mL
Clc1ccc(CSC(Cn2ccnc2)c2ccc(Cl)cc2Cl)cc1 ; strain: 19 isolates ; read-out: MIC50 ; result: 2 µg/mL
c1ccc([Se][Se]c2ccccc2)cc1 ; method: broth dilution ; read-out: MFC ; result: >64 µg/mL
Clc1ccc(CCC(Cn2ccnc2)Sc2c(Cl)cccc2Cl)cc1 ; strain: 19 isolates ; read-out: MIC90 ; result: 1 µg/mL
Nc1nc(=O)n([C@H]2CS[C@@H](CO)O2)cc1F ; strain: 54 isolates ; read-out: MIC90 ; result: 1 µg/mL
COc1cc(O)c2c(c1)C(=O)c1c(cc3c(c1O)-c1c(cc(C)c(C(=O)NC(CO)C(=O)O)c1O)[C@H](OC1OC(C)C(O)C(OC4OCC(O)C(O)C4O)C1O)C3O)C2=O ; strain: Kitasato 85-8 ; read-out: MIC ; result: 12.5 µg/mL
O=C(O)c1ccccc1O ; method: broth dilution / turbidity ; strain: PYCC 3097 ; read-out: EC50 ; result: 0.45 µM
Oc1cccc2cc(Cl)cnc12 ; conditions: 48 h ; strain: ATCC 750 ; read-out: MIC ; result: 25 µg/mL
C[C@@H]1[C@H](O)[C@@H](C)/C=C/C=C/CC/C=C/C=C/C=C/C=C/C(O[C@H]2O[C@H](C)[C@@H](O)[C@H](N)[C@@H]2O)CC2O[C@](O)(CC(O)C(O)CCC(O)CC(O)CC(O)CC(=O)O[C@H]1C)CC(O)C2C(=O)O ; method: broth dilution ; strain: LM 759 ; read-out: MIC100 ; result: 64 µg/mL
O=[N+]([O-])c1cc(C[Se]c2nnnn2C2CCCCC2)cc([N+](=O)[O-])c1 ; conditions: 24 h ; method: broth dilution ; strain: 156 ; read-out: EC80 ; result: >500 µM
Cc1ccc(C(C)C)c(O)c1 ; method: broth dilution / turbidity ; strain: PYCC 3097 ; read-out: EC50 ; result: 0.52 µM
CC(C)OC(=O)c1ccc(C2=CN3CCC2CC3)cc1 ; method: broth dilution ; strain: ATCC 13803 ; read-out: EC50 ; result: >16 µg/mL
Clc1ccc(C(Cn2ccnc2)OCc2csc3c(Cl)cccc23)c(Cl)c1 ; strain: 27 strains ; read-out: MIC ; result: 1.49 µg/mL
CC(=O)N1CCN(c2ccc(OC[C@H]3CO[C@](Cn4ccnc4)(c4ccc(Cl)cc4Cl)O3)cc2)CC1 ; method: broth dilution ; strain: 17 clinical isolates ; read-out: MIC90 ; result: ≤0.031 µg/mL
Oc1cc(Cl)cc2cccnc12 ; conditions: 48 h ; strain: ATCC 750 ; read-out: MIC ; result: 6.2 µg/mL
COC(=O)[C@H]1[C@@H]2C[C@@H](O[C@@H]3O[C@H](C)[C@@H](O)[C@H](N)[C@@H]3O)/C=C/C=C/C=C/C=C/C=C/C=C/C=C/[C@H](C)[C@@H](O)[C@H](C)[C@H](C)OC(=O)C[C@H](O)C[C@H](O)[C@@H](O)CC[C@H](O)C[C@H](O)C[C@](O)(C[C@@H]1O)O2 ; strain: Clinical isolates ; read-out: MIC ; result: 2 µg/mL
Oc1cc(Cl)cc2cc(Cl)cnc12 ; conditions: 48 h ; strain: ATCC 750 ; read-out: MIC ; result: 3.1 µg/mL
COc1cc(O)c2c(=O)c(OC)c(-c3ccc(OC4O[C@H](CO)[C@@H](O)[C@H](O)[C@H]4O)cc3)oc2c1 ; read-out: MIC ; result: 320 µg/mL
COc1cc(O)cc(/C=C/c2ccc(O)cc2)c1 ; method: broth dilution ; strain: ATCC MYA-3404/T1 ; read-out: MIC95 ; result: >300 µg/mL

For reference, 6 entries again:

structure | conditions | method | strain | read-out | dose | result
C[C@@H]1[C@H](O)[C@@H](C)/C=C/C=C/CC/C=C/C=C/C=C/C=C/C(O[C@H]2O[C@H](C)[C@@H](O)[C@H](N)[C@@H]2O)CC2O[C@](O)(CC(O)C(O)CCC(O)CC(O)CC(O)CC(=O)O[C@H]1C)CC(O)C2C(=O)O |  | broth dilution | LM 759 | MIC100 |  | 64 µg/mL
Oc1cc(Cl)cc2cc(Cl)cnc12 | 48 h |  | ATCC 750 | MIC |  | 3.1 µg/mL
C[C@H](Cc1ccc(O)c(O)c1)[C@@H](C)Cc1ccc(O)c(O)c1 |  | broth dilution | CCC 131-1997 | MIC80 |  | 250 µg/mL
Clc1ccc(CCC(Cn2ccnc2)Sc2c(Cl)cccc2Cl)cc1 |  |  | 19 isolates | MIC90 |  | 1 µg/mL
O=C(O)c1cccc(-n2nnnc2SCc2cc([N+](=O)[O-])cc([N+](=O)[O-])c2)c1 | 48 h | broth dilution | 156 | EC80 |  | >500 µM
O=[N+]([O-])c1cc(CSc2cccc[n+]2[O-])cc([N+](=O)[O-])c1 | 48 h | broth dilution | 156 | EC80 |  | >500 µM